Results published in PubChem BioAssay AID651644 (National Center for Advancing Translational Sciences (NCATS), 2012).
The list shows a part of the results, in another mix than the full data. Calls of active or inactive are those of the source. The call rests on the fitted dose curve; in most records, active means well fitted falling curve with a large enough effect; inconclusive means small, poorly fitted or top-dose-only effect; inactive means no such curve, though single readings can be large or run the other way.

assay: qHTS Assay for Inhibitors of the HIV-1 protein Vpr; further: nearly all actives have a fitted effect of over 50% in size; conditions: S. pombe RE007 Vpr strain, BacTiter-Glo ATP luminescence, 24 h; at 92.2 µM (top of the series)
On the % scale 0 is the no-effect control and ±100 the full control effect.

Row | Compound | activity change, negative = less growth
1 | CN(C(=O)Cc1ccc(Cl)c(Cl)c1)[C@H]1CCCC[C@H]1N1CCCC1 | inactive: -13.2%
2 | Cc1cc(C)cc(OP(C)(N)=O)c1 (configuration not stated) | inactive: -11.9%
